{"source": "PubChem BioAssay AID1224833 (University of Georgia, 2016)", "screen": "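Host factors restraining rotavirus as candidate antiviral genes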 (primary screen)", "cells": "monkey MA104 kidney cells", "reagents": "siRNA pool against human genes, 50 nM", "time to read-out": "48 h knock-down before infection; read 24 h after infection", "conditions": "infection with rotavirus strain RV3 two days after transfection; infectious dose for this stage not given", "measured": "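z-score of rotavirus antigen signal per well, from a fluorescent immunoassay, relative to non-targeting control wells on the same plate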", "scale": "z-score vs non-targeting control: higher = more rotavirus replication than with non-targeting control", "hit rule": "In these data the active calls have z-score vs non-targeting control at about -1 or lower, or at about 1 or higher", "calls": "active = z-score beyond 1 either way; inactive = z-score within 1 of zero", "note": "In all, the deposit lists about 12,000 reagents; this is a random part of them. About 5,600 of them (46%) were called active. 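Active calls cover z-scores past 1 in both directions, so they include lowered as well as raised rotavirus replication.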 Unmarked entries are inactive."}
The first 5 records as a preview:
{"gene symbol":"HOXD8 (homeobox D8)","z-score vs non-targeting control":"2.05 (active)"}
{"gene symbol":"ACTL9 (actin like 9)","z-score vs non-targeting control":"-1.71 (active)"}
{"gene symbol":"FAM13C (family with sequence similarity 13 member C)","z-score vs non-targeting control":"-1.11 (active)"}
{"gene symbol":"RRAGC (Ras related GTP binding C)","z-score vs non-targeting control":0.821}
{"gene symbol":"AHDC1 (AT-hook DNA binding motif containing 1)","z-score vs non-targeting control":"1.77 (active)"}

The list itself, repeating the preview:
{"gene symbol":"HOXD8 (homeobox D8)","z-score vs non-targeting control":"2.05 (active)"}
{"gene symbol":"ACTL9 (actin like 9)","z-score vs non-targeting control":"-1.71 (active)"}
{"gene symbol":"FAM13C (family with sequence similarity 13 member C)","z-score vs non-targeting control":"-1.11 (active)"}
{"gene symbol":"RRAGC (Ras related GTP binding C)","z-score vs non-targeting control":0.821}
{"gene symbol":"AHDC1 (AT-hook DNA binding motif containing 1)","z-score vs non-targeting control":"1.77 (active)"}
{"gene symbol":"SELENOS (selenoprotein S)","z-score vs non-targeting control":"-1.93 (active)"}
{"gene symbol":"IQSEC1 (IQ motif and Sec7 domain ArfGEF 1)","z-score vs non-targeting control":-0.775}
{"gene symbol":"PRMT9 (protein arginine methyltransferase 9)","z-score vs non-targeting control":"-1.51 (active)"}
{"gene symbol":"CDK2AP1 (cyclin dependent kinase 2 associated protein 1)","z-score vs non-targeting control":"1.13 (active)"}
{"gene symbol":"OR4F17 (olfactory receptor family 4 subfamily F member 17)","z-score vs non-targeting control":-0.881}
{"gene symbol":"MYL7 (myosin light chain 7)","z-score vs non-targeting control":-0.794}
{"gene symbol":"RNF213 (ring finger protein 213)","z-score vs non-targeting control":"-1.35 (active)"}
{"gene symbol":"OR10G8 (olfactory receptor family 10 subfamily G member 8)","z-score vs non-targeting control":0.871}
{"gene symbol":"MDH2 (malate dehydrogenase 2)","z-score vs non-targeting control":"-2.1 (active)"}
{"gene symbol":"PPP1R11 (protein phosphatase 1 regulatory inhibitor subunit 11)","z-score vs non-targeting control":"-1.7 (active)"}
{"gene symbol":"CEP192 (centrosomal protein 192)","z-score vs non-targeting control":-0.099}
{"gene symbol":"BCLAF3 (BCLAF1 and THRAP3 family member 3)","z-score vs non-targeting control":-0.125}
{"gene symbol":"ARHGAP35 (Rho GTPase activating protein 35)","z-score vs non-targeting control":"-1.79 (active)"}
{"gene symbol":"LMAN2L (lectin, mannose binding 2 like)","z-score vs non-targeting control":"-1.56 (active)"}
{"gene symbol":"BDP1 (BDP1 general transcription factor IIIB subunit)","z-score vs non-targeting control":"1.01 (active)"}
{"gene symbol":"COL8A2 (collagen type VIII alpha 2 chain)","z-score vs non-targeting control":0.351}
{"gene symbol":"ZNF707 (zinc finger protein 707)","z-score vs non-targeting control":"-2.18 (active)"}
{"gene symbol":"KANSL2 (KAT8 regulatory NSL complex subunit 2)","z-score vs non-targeting control":"-1.2 (active)"}
{"gene symbol":"KEAP1 (kelch like ECH associated protein 1)","z-score vs non-targeting control":"1.35 (active)"}
{"gene symbol":"LRRC1 (leucine rich repeat containing 1)","z-score vs non-targeting control":0.187}
{"gene symbol":"CARD16 (caspase recruitment domain family member 16)","z-score vs non-targeting control":"1.04 (active)"}
{"gene symbol":"ANKRD49 (ankyrin repeat domain 49)","z-score vs non-targeting control":"1.5 (active)"}
{"gene symbol":"SRSF10 (serine and arginine rich splicing factor 10)","z-score vs non-targeting control":"2.77 (active)"}
{"gene symbol":"POGZ (pogo transposable element derived with ZNF domain)","z-score vs non-targeting control":"2.18 (active)"}
{"gene symbol":"PARM1 (prostate androgen-regulated mucin-like protein 1)","z-score vs non-targeting control":"1.08 (active)"}
{"gene symbol":"HYI (hydroxypyruvate isomerase (putative))","z-score vs non-targeting control":"-1.09 (active)"}
{"gene symbol":"RPL23 (ribosomal protein L23)","z-score vs non-targeting control":-0.144}
{"gene symbol":"ZNF396 (zinc finger protein 396)","z-score vs non-targeting control":0.0963}
{"gene symbol":"PMFBP1 (polyamine modulated factor 1 binding protein 1)","z-score vs non-targeting control":0.989}
{"gene symbol":"CDR2L (cerebellar degeneration related protein 2 like)","z-score vs non-targeting control":-0.93}
{"gene symbol":"DCTN6 (dynactin subunit 6)","z-score vs non-targeting control":"1.41 (active)"}
{"gene symbol":"TIMMDC1","z-score vs non-targeting control":"-1.92 (active)"}
{"gene symbol":"LRCH1","z-score vs non-targeting control":"-1.26 (active)"}
{"gene symbol":"NDST1 (N-deacetylase and N-sulfotransferase 1)","z-score vs non-targeting control":0.542}
{"gene symbol":"ANKRD13C-DT (ANKRD13C divergent transcript)","z-score vs non-targeting control":-0.244}
{"gene symbol":"CBFA2T3 (CBFA2/RUNX1 partner transcriptional co-repressor 3)","z-score vs non-targeting control":0.945}
{"gene symbol":"CNTD1 (cyclin N-terminal domain containing 1)","z-score vs non-targeting control":0.486}
{"gene symbol":"MRPL24 (mitochondrial ribosomal protein L24)","z-score vs non-targeting control":0.602}
{"gene symbol":"GCC2 (GRIP and coiled-coil domain containing 2)","z-score vs non-targeting control":"-1.94 (active)"}
{"gene symbol":"IFT88 (intraflagellar transport 88)","z-score vs non-targeting control":0.817}
{"gene symbol":"FAM177A1 (family with sequence similarity 177 member A1)","z-score vs non-targeting control":-0.258}
{"gene symbol":"STON1 (stonin 1)","z-score vs non-targeting control":0.269}
